System: consortium of bacteria: mixture of Pseudomonas aeruginosa, Klebsiella pneumoniae, Staphylococcus aureus, and Bacillus subtilis
Assay: Growth inhibition assay (microtiter plate-based synergy assay)
Type: cell-based
Conditions: 24 h

Substance: 4,5-dichloro-2-n-octylisothiazolin-3-one
- % Inhibition of growth by DCOIT (DCOIT 0.19 mg/l alone): 0%
- % Inhibition of growth by DCOIT (DCOIT 0.39 mg/l alone): 0%
- % Inhibition of growth by DCOIT (DCOIT 0.78 mg/l alone): 26%
- % Inhibition of growth by DCOIT (DCOIT 1.56 mg/l alone): 41%
- % Inhibition of growth by DCOIT (DCOIT 3.13 mg/l alone): 37%
- % Inhibition of growth by DCOIT (DCOIT 6.25 mg/l alone): 99%
- % Inhibition of growth by DCOIT (DCOIT 12.5 mg/l alone): 99%
- % Inhibition of growth by DCOIT (DCOIT 25.0 mg/l alone): 97%
- I90 value (minimum concentration in which growth of the consortium is at least 90% less than controls) (single active alone): 6.25 mg/L
